A mixed list of measured activities; the numbers were collected in NIAID ChemDB.

Common to all: whole-cell or culture tests; organism: HIV-1; read by: p24; measure: EC50

Lines come from different laboratories, so protocols vary.

smiles,cells,changes,setting,strain or isolate,value
Nc1nc(N)c2ncn([C@H]3CO[C@@H](CO)O3)c2n1,PBMC,-,-,LAI,4.1 µM
C[C@@H](NC(=S)Nc1ccc(Cl)cn1)c1cccc2ccccc12,PBMC,RT-K103N Y181C,-,A17V(RT-K103N Y181C),0.367 µM
CCc1cc(CCc2nc3c(Cl)ccc(Cl)c3o2)c(=O)[nH]c1C,MT-4,-,-,IIIB,<0.05 µM
COc1cc2ccc(=O)oc2c(CC=C(C)C)c1OC,H9,-,-,IIIB,0.576 µg/mL
CCc1cc(CCc2nc3cccc(F)c3o2)c(=S)[nH]c1C,MT-4,-,-,IIIB,<0.2 µM
Cc1csc(NC(=S)N[C@H](C)c2cccc3ccccc23)n1,PBMC,RT-K103N Y181C,-,A17V(RT-K103N Y181C),0.114 µM
CC(C)(O)c1cccc(CN2C(=O)N(Cc3cccc(C(C)(C)O)c3)[C@H](Cc3ccccc3)[C@H](O)[C@@H](O)[C@H]2Cc2ccccc2)c1,MT-2/MT-4 + MT-2,PR-184V,-,HXB2,<0.0722 µM
CC(C)(C)NC(=O)[C@@H]1C[C@@H]2CCCC[C@@H]2CN1C[C@@H](O)[C@H](Cc1ccccc1)NC(=O)[C@H](CC(N)=O)NC(=O)c1ccc2ccccc2n1,MT-4,PR-L63P V82T I84V,-,NL4-3,<0.05 µM
CC(C)CC(SCc1ccccc1)c1c(O)cc(-c2ccccc2)oc1=O,H9,-,-,IIIB,28 µM
Cc1cn([C@H]2C[C@H](N=[N+]=[N-])[C@@H](CO)O2)c(=O)[nH]c1=O,H9,-,-,IIIB,<0.001 µg/mL
CCN1c2ncc(CCOc3ccc(CC(=O)O)c4ccccc34)cc2C(=O)N(C)c2ccc(F)nc21,C8166,-,-,WT,<0.1 µM
COC(=O)[C@H](C)NP(=O)(OC[C@@H]1CC[C@H](N2C(=O)NC(=O)C(C)(Br)C2OC)O1)Oc1ccc(Br)cc1,PBMC,-,-,-,1.924 µM
Nc1ccn([C@H]2CC[C@@H](CO)O2)c(=O)n1,MT-4,RT-M184V,-,126 3TC (RT-M184V),2.8 µM
CCc1cc(CCc2nc3c(F)cccc3o2)c(=S)[nH]c1C,MT-4,-,-,IIIB,<0.1 µM
Cc1cn([C@H]2C[C@H](N=[N+]=[N-])[C@@H](CO)O2)c(=O)[nH]c1=O,PBMC,-,-,NL4-3,0.001 µM
Cc1cn([C@H]2C[C@H](N=[N+]=[N-])[C@@H](CO)O2)c(=O)[nH]c1=O,HUT/CCR5 + HUT,-,7 d,BaL,<0.5 µM
COC1N(C2CC(N=[N+]=[N-])C(CO)O2)C(=O)NC(=O)C1(C)Br,PBMC,-,-,-,0.006 µM
CCN1c2ncc(CCOc3ccc(CCC(=O)NN)c4ccccc34)cc2C(=O)N(C)c2cccnc21,C8166,RT-K103N Y181C,-,-,0.1–1 µM
COC(=O)[C@H](C)NP(=O)(OC[C@H]1O[C@@H](N2C(=O)NC(=O)C(C)(Br)C2OC)C[C@@H]1N=[N+]=[N-])Oc1ccccc1,PBMC,-,-,-,0.035 µM
Nc1ccn([C@H]2CC[C@@H](CO)O2)c(=O)n1,PBL,-,clinical isolate,Clinical isolate,0.01 µM
Cc1cn([C@@H]2O[C@H](CO)C3(OS(=O)(=O)C=C3N)[C@H]2O[Si](C)(C)C(C)(C)C)c(=O)[nH]c1=O,PBL,-,-,IIIB,>40 µM
NC(=O)c1ncn([C@@H]2O[C@H](CO)[C@@H](O)[C@H]2O)n1,PBMC,-,-,LAI,20.5 µM
CCNc1cccnc1N1CCN(C(=O)c2cc3cc(OC)ccc3[nH]2)CC1,PBL,-,-,IIIB,0.001–0.01 µM
C[C@@H]1O[C@H]2OCCC[C@H]2[C@H]1OC(=O)N[C@@H](Cc1ccccc1)[C@H](O)CN1C[C@H]2CCCC[C@H]2C[C@H]1C(=O)NC(C)(C)C,PBMC,PR-L10I K43T M46I I54V L63P A71V V82A L90M Q92K,-,MM,>1 µM
[N-]=[N+]=N[C@@H]1[C@H](O)[C@@H](CO)O[C@H]1n1ccc(N)nc1=O,PBMC,-,-,IIIB,>2 µM
C=C(CC(=O)O)c1ccc(OCCc2cnc3c(c2)C(=O)N(C)c2cccnc2N3CC)c2ccccc12,C8166,RT-K103N Y181C,-,-,0.1–1 µM
CC[C@]1(c2ccccc2)Oc2cccnc2-n2cccc2C1=O,U-937,-,-,-,0.41 µM
Cc1ccc(-c2ccc3c(c2)C=C(C(=O)Nc2ccc(C[N+](C)(C)C4CCOCC4)cc2)CCC3)cc1,PBMC,-,-,SW,>20 µM
Nc1nc2c(ncn2[C@H]2CO[C@@H](CO)O2)c(=O)[nH]1,PBMC,-,-,LAI,0.14 µM
CCN1c2ncc(CCOc3ccc(C(=O)O)c4ccccc34)cc2C(=O)Nc2c(C)cc(Cl)nc21,C8166,-,-,WT,<0.1 µM
C[C@H]1O[C@@H]2OCCC[C@@H]2[C@@H]1OC(=O)N[C@@H](Cc1ccccc1)[C@H](O)CN1C[C@H]2CCCC[C@H]2C[C@H]1C(=O)NC(C)(C)C,PBMC,-,-,PR-L63P ERS104pre,0.033 µM
COc1c2c(nc3ccccc13)O[C@@H](C(C)(C)O)C2,H9,-,-,IIIB,1.34 µg/mL
CCc1cc(CCc2nc3c(F)ccc(F)c3o2)c(=S)[nH]c1C,MT-4,-,-,IIIB,<0.15 µM
Cc1cn([C@H]2C[C@H](N=[N+]=[N-])[C@@H](CO)O2)c(=O)[nH]c1=O,PBMC,-,-,B101990,1 µM
CCOP(=O)(N[C@@H](CC(C)C)C(=O)OC)OC[C@H]1O[C@@H](n2cc(C)c(=O)[nH]c2=O)C[C@@H]1N=[N+]=[N-],JM,-,-,GBB,20 µg/mL
C[C@H](NC(=O)[C@H](CCCN=C(N)N)NC(=O)c1ccc(CNCc2ccccn2)cc1)c1cccc2ccccc12,PBMC,-,-,YU-11 X4 clinical isolate,0.025 µM
O=c1ccc2cc3ccoc3cc2o1,H9,-,-,IIIB,0.1 µg/mL
Cc1cn([C@@H]2O[C@H](CO)C3(OS(=O)(=O)C=C3N)[C@H]2O)c(=O)[nH]c1=O,PBL,-,-,IIIB,>30 µM
CCc1cc(CCc2nc3c(C)ccc(C)c3o2)c(=O)[nH]c1C,MT-4,-,-,IIIB,<0.3 µM
CCN1c2ncc(CCOc3ccc(C(=O)O)c4ccccc34)cc2C(=O)N(C)c2ccc(Cl)nc21,C8166,-,-,WT,<0.1 µM
Nc1ncnc2c1ncn2CCOCP(=O)(O)O,CBMC,RT-K65R M184V,-,HXB2-D (RT K65R M184V),5.01 ± 0.7 µM
Cn1cc(C(=O)O)c(=O)c2cc(F)c(N3CC=C(c4ccccc4)CC3)c(C(F)(F)F)c21,MOLT-4/U1(HIV-1(IIIB)) + MOLT-4,-,-,IIIB,0.06 µM
COC1N([C@H]2C[C@H](N)[C@@H](CO)O2)C(=O)NC(=O)C1(C)Br,PBMC,-,-,-,0.25 µM
C=C/C=C(\C=C/Cc1c2nc(c(-c3ccc(S(=O)(=O)NCCN(CC)CC)cc3)c3ccc([n-]3)c(C/C=C\C(=C/C=C)S(=O)(=O)NCCN(CC)CC)c3ccc([n-]3)c(-c3ccc(S(=O)(=O)NCCN(CC)CC)cc3)c3nc1C=C3)C=C2)S(=O)(=O)NCCN(CC)CC.[O]=[V+2],HUT/CCR5 + HUT,-,3 d,BaL,0.82 µM
CCc1cc(CCc2nc3cccc(Cl)c3o2)c(=S)[nH]c1C,MT-4,-,-,IIIB,<0.2 µM
COC(=O)[C@H](C)NP(=O)(OC[C@H]1O[C@@H](n2cc(C)c(=O)[nH]c2=O)C[C@@H]1N=[N+]=[N-])Oc1ccc(F)cc1,PBMC,-,-,-,0.029 µM
CCc1cc(CNc2nc3ccccc3o2)c(=O)[nH]c1C,MT-4,-,-,IIIB,<10 µM
Cc1cn([C@@H]2O[C@H](CO[Si](C)(C)C(C)(C)C)C3(OS(=O)(=O)C=C3N)[C@H]2O[Si](C)(C)C(C)(C)C)c(=O)n(C)c1=O,Monocytes/macrophages,-,-,BaL,0.162 µM
CC(C)(C)OC(=O)[C@@H]1CCCN1C[C@@H](O)[C@H](Cc1ccccc1)NC(=O)[C@H](CC(N)=O)NC(=O)OCc1ccccc1,JM,-,-,GBB,0.5 µg/mL
CCN1c2ncc(CCOc3ccc(C(=O)O)c4c3CCCC4)cc2C(=O)N(C)c2cccnc21,C8166,RT-K103N Y181C,-,-,<0.1 µM
CC(C)CN(C[C@@H](O)[C@H](Cc1ccccc1)NC(=O)[C@H](CC(N)=O)NC(=O)c1ccc2ccccc2n1)C(=O)NC(C)(C)C,MT-4,PR-L10R M46I L63P V82T,-,NL4-3,<0.4 µM
COc1cc2c[n+](C)c3c4cc5c(cc4c(CC(C)=O)cc3c2cc1OC)OCO5,H9,-,-,IIIB,<0.1 µg/mL
CC(C)(C)OC(=O)[C@@H]1CCCN1C[C@H](O)[C@H](Cc1ccccc1)NC(=O)[C@H](CC(N)=O)NC(=O)OCc1ccccc1,C8166,-,-,RF,10 µg/mL
Nc1ccn([C@H]2CC[C@@H](CO)O2)c(=O)n1,PBMC,-,-,IIIB,0.09 µM
CCc1cc(CCc2nc3cccc(Cl)c3o2)c(=O)[nH]c1C,MT-4,-,-,IIIB,<0.1 µM
CC(C)CN(C[C@@H](O)[C@H](Cc1ccccc1)NC(=O)O[C@H]1CCOC1)S(=O)(=O)c1ccc(N)cc1,PBMC,-,-,PR-L63P ERS104pre,0.02 µM
CCN1c2ncc(CCOc3ccc(C(=O)O)c4ccccc34)cc2C(=O)N(C)c2cccnc21,C8166,RT-K103N Y181C,-,-,<0.1 µM
CCc1cc(CCc2nc3c(Cl)ccc(Cl)c3o2)c(=S)[nH]c1C,MT-4,-,-,IIIB,<0.1 µM
COc1ccc([C@H](O)CNC(=O)c2ccccc2)cc1,H9,-,-,IIIB,<0.1 µg/mL
CCc1cc(NCc2nc3c(Cl)ccc(Cl)c3o2)c(=O)[nH]c1C,MT-4,-,-,IIIB,0.1 µM
COc1ccc(Cc2nccc3cc(OC)c(OC)cc23)cc1OC,C8166,-,-,RF,>5 µg/mL

The last 3 rows once more:

smiles	cells	changes	setting	strain or isolate	value
COc1ccc([C@H](O)CNC(=O)c2ccccc2)cc1	H9	-	-	IIIB	<0.1 µg/mL
CCc1cc(NCc2nc3c(Cl)ccc(Cl)c3o2)c(=O)[nH]c1C	MT-4	-	-	IIIB	0.1 µM
COc1ccc(Cc2nccc3cc(OC)c(OC)cc23)cc1OC	C8166	-	-	RF	>5 µg/mL

a–b is a range or a potency band. ECn: concentration that inhibits the pathogen or its effect by n%. An empty or dashed field is not shown.